Pooled drug test results. Numbers come from NIAID ChemDB, via PubChem.

Common to all: whole-cell or culture tests; species: Aspergillus niger; endpoint: MIC

Lines come from different laboratories, so protocols vary. a–b is a range or a potency band. Blank or dashed fields: not listed here.

smiles,strain,value
Nc1c(/C=N/NC(=O)c2ccncc2)cccc1CN1CCCC1,MTCC 8184,25 µg/mL
O=C1CCC(c2ccccc2)C(=O)N1,DSM 1988,>100 µM
CCCCc1nc([N+]#N)c(C(=O)N2CCCC2)[nH]1,L32,>200 µg/mL
CCCCCOc1ccc(-c2cc(-c3ccc(C(=O)N[C@H]4C[C@@H](O)[C@@H](O)NC(=O)[C@@H]5[C@@H](O)[C@@H](C)CN5C(=O)[C@H]([C@H](O)CC(N)=O)NC(=O)[C@H]([C@H](O)[C@@H](O)c5ccc(O)c(OS(=O)(=O)O)c5)NC(=O)[C@@H]5C[C@@H](O)CN5C(=O)[C@H]([C@@H](C)O)NC4=O)cc3)no2)cc1,-,0.015–0.06 µg/mL
Oc1cccc2c(Cl)ccnc12,ATCC 1004,3 µg/mL
C[C@@H]1[C@H](O)[C@@H](C)/C=C/C=C/CC/C=C/C=C/C=C/C=C/[C@H](O[C@@H]2O[C@H](C)[C@@H](O)[C@H](N)[C@@H]2O)C[C@@H]2O[C@](O)(C[C@@H](O)[C@H](O)CC[C@@H](O)C[C@@H](O)C[C@@H](O)CC(=O)O[C@H]1C)C[C@H](O)[C@H]2C(=O)O,-,0.75 µg/mL
Cl.NCCS,MTCC 1349,670 µg/mL
O=C1C(c2ccc(Oc3ccccc3)cc2)=[N+]([O-])c2ccccc21,-,>125 µg/mL
N#[N+]c1nc(-c2ccc(Cl)cc2)[nH]c1C(=O)N1CCCC1,L32,25 µg/mL
c1ccc(-c2ccc(C(c3ccccc3)n3ccnc3)cc2)cc1,-,3.125 µg/mL
CCCCCN(CCCCC)Cc1cccc(/C=N/NC(=O)c2ccncc2)c1N,MTCC 8184,3.12 µg/mL
CCOc1ccc2[nH]c3c(c2c1)C1[C@](C)(C(=O)OC)CCC[C@]1(C)c1ccc(C(C)C)cc1-3,CGMCC3.316,>100 µg/mL
Oc1c(Cl)ccc2cccnc12,ATCC 1004,3 µg/mL
Nc1ccccc1/C=N/NC(=O)c1ccncc1,MTCC 8184,12.5 µg/mL
COC(=O)[C@]1(C)CCC[C@]2(C)c3ccc(C(C)C)cc3-c3[nH]c4ccc(Cl)cc4c3C12,CGMCC3.316,>100 µg/mL
C[C@@H]1[C@H](O)[C@@H](C)/C=C/C=C/CC/C=C/C=C/C=C/C=C/C(O[C@H]2O[C@H](C)[C@@H](O)[C@H](N)[C@@H]2O)CC2O[C@](O)(CC(O)C(O)CCC(O)CC(O)CC(O)CC(=O)O[C@H]1C)CC(O)C2C(=O)O,MTCC 8184,0.78 µg/mL
Oc1c(Br)ccc2cccnc12,ATCC 1004,2 µg/mL
COC(=O)[C@]1(C)CCC[C@]2(C)c3ccc(C(C)C)cc3-c3[nH]c4ccc(F)cc4c3C12,CGMCC3.316,>100 µg/mL
N#[N+]c1nc(-c2cccc(F)c2)[nH]c1C(=O)N1CCCC1,L32,100 µg/mL
O=C1C(c2ccc(Cl)cc2)=[N+]([O-])c2cc3c(cc21)OCO3,-,>125 µg/mL
Oc1cccc2cccnc12,ATCC 1004,20 µg/mL
C[C@@H](c1ncncc1F)[C@](O)(Cn1cncn1)c1ccc(F)cc1F,-,0.125–4 µg/mL
Oc1cccc2ccc(Br)nc12,ATCC 1004,>100 µg/mL
CN1CCN(Cc2cccc(/C=N/NC(=O)c3ccncc3)c2N)CC1,MTCC 8184,1.56 µg/mL
CCCc1nc([N+]#N)c(C(=O)N2CCCC2)[nH]1,L32,>200 µg/mL
Nc1[nH]c(=O)ncc1F,-,4–64 µg/mL
COc1ccc2c(c1)C(=O)C(c1ccc(-c3ccc(Cl)cc3)cc1)=[N+]2[O-],-,>62.5 µg/mL
O=C1CCC(c2ccccc2)C(=O)N1CCCCN1CCN(c2ccccc2O)CC1,DSM 1988,>100 µM
C[C@@H]1OC(OC[C@H]2OC(Oc3c(-c4ccc(O)c(O)c4)oc4cc(O)cc(O)c4c3=O)[C@H](O)[C@@H](O)[C@@H]2O)[C@H](O)[C@H](O)[C@H]1O,-,80 µg/mL
CCC(C)n1ncn(-c2ccc(N3CCN(c4ccc(OC[C@H]5CO[C@](Cn6cncn6)(c6ccc(Cl)cc6Cl)O5)cc4)CC3)cc2)c1=O,-,0.25–4 µg/mL
N#[N+]c1nc(-c2ccc([N+](=O)[O-])cc2)[nH]c1C(=O)N1CCCC1,L32,200 µg/mL
O=C1CCC(c2ccccc2)C(=O)N1CCCN1CCN(c2ccccc2O)CC1,DSM 1988,>100 µM
CCCN(CCC)Cc1cccc(/C=N/NC(=O)c2ccncc2)c1N,MTCC 8184,12.5 µg/mL
O=C1C(c2ccc(Cl)cc2)=[N+]([O-])c2ccccc21,-,>12.5 µg/mL
O=C1CCC(c2ccccc2)C(=O)N1CCCCN1CCN(Cc2ccccc2)CC1,DSM 1988,>100 µM
O=C1C(c2ccc(Cl)cc2)=[N+]([O-])c2cccnc21,-,31.25 µg/mL
COC(=O)[C@]1(C)CCC[C@]2(C)c3ccc(C(C)C)cc3C(=O)C[C@@H]12,CGMCC3.316,>100 µg/mL
C[C@@H](c1nc(-c2ccc(C#N)cc2)cs1)[C@](O)(Cn1cncn1)c1cc(F)ccc1F,-,0.125–16 µg/mL
Cc1ccc(-c2nc([N+]#N)c(C(=O)N3CCCC3)[nH]2)cc1,L32,100 µg/mL
COC(=O)[C@]1(C)CCC[C@]2(C)c3ccc(C(C)C)cc3-c3[nH]c4c(F)cccc4c3C12,CGMCC3.316,62.5 µg/mL

Repeating the first 2 entries:

Nc1c(/C=N/NC(=O)c2ccncc2)cccc1CN1CCCC1 ; strain: MTCC 8184 ; value: 25 µg/mL
O=C1CCC(c2ccccc2)C(=O)N1 ; strain: DSM 1988 ; value: >100 µM